Results: PubChem BioAssay AID1251 (SRMLSC, 2008)
This is a selection; strong and weak results do not stand in their true shares. Active and inactive are the calls of the source. Rule as the data show it: active = inhibition above about 30%; inactive = the rest, inconclusive results apart.

test: inhibitors of arbovirus infection in cells – cell-based, full library, 10K replicate subset, primary screen (AID 1251); details: arbovirus infection cell-based antiviral screen; at 10 µM; active compounds read high

| Compound | inhibition |
| --- | --- |
| COc1ccccc1OP(C)(=O)Nc1cc(Cl)ccc1C (stereo not given) | inactive: -12.5% |
| CC(C)NC(=O)NP(=O)(Oc1ccccc1)Oc1ccccc1 | inactive: 1.34% |
| CCN(CC)C(=S)SC(NC=O)C(Cl)(Cl)Cl (stereo not given) | inactive: 4.1% |
| COc1ccc(OP(C)(=O)Nc2cccc(F)c2)cc1 (stereo not given) | inactive: 6.82% |
| O=[N+]([O-])c1cc([N+](=O)[O-])c(-c2ccn[nH]2)s1 | inactive: -32.1% |
| Cc1cc(C)cc(OP(C)(N)=O)c1 (stereo not given) | inactive: 8.34% |
| CCOC(=O)c1ccc(NP(C)(=O)Oc2ccccc2)cc1 (stereo not given) | inactive: 2.45% |
| ClCCSc1nnc(-c2cccnc2)o1 | inactive: 1.89% |
| COc1ccccc1OP(C)(=O)Nc1ccc(C)cc1 (stereo not given) | inactive: 5.9% |
| Cc1ccc(NP(C)(=O)Oc2ccccc2)c(C)c1 (stereo not given) | inactive: 4.19% |
| CC(C)(C)c1ccc(OP(C)(=O)Nc2ccc(SC(F)(F)F)cc2)cc1 (stereo not given) | inactive: -26.1% |
| Cc1cccc(C)c1OP(C)(N)=O (stereo not given) | inactive: 7.1% |
| O=[N+]([O-])c1ccc2c(c1)C=Nc1ccccc1O2 | inactive: 6.74% |
| Cc1ccc2nc3c(c(C)c2c1)CC(C(Cl)Cl)S3 (stereo not given) | inactive: 6.99% |
| COc1ccc(N/C(=N/P(=O)(N2CCOCC2)N2CCOCC2)N2CCOCC2)cc1 | inactive: 13.5% |
| COc1ccc2nc(NP(=O)(c3ccccc3)c3ccccc3)sc2c1 | inactive: 16.7% |
| Cc1c2c(nc3ccccc13)SC(C(Cl)Cl)C2 (stereo not given) | inactive: 13.2% |
| O=C(OC1CN2CCC1CC2)C12CC3CC(CC(C3)C1)C2 (stereo not given) | inactive: -4.09% |
| Cc1cc(=O)[nH]c(N[N+](=O)[O-])n1 | inactive: 11.1% |
| CCN(CC)CCCOC(=O)C(O)(c1ccccc1)c1ccccc1 | inactive: 2.88% |
| CCC(C)N(CC(C)C)C(=S)SC(NC(C)=O)C(Cl)(Cl)Cl (stereo not given) | inactive: -12.7% |
| CP(=O)(Nc1ccccn1)Oc1ccc(Cl)cc1 (stereo not given) | inactive: 3.08% |
| CCOP(C)(=S)SCC(=O)NC(C)C(=O)O (stereo not given) | inactive: 5.16% |
| CCOC(=O)c1ccc(NP(C)(=O)Oc2ccc(OC)cc2)cc1 (stereo not given) | inactive: -5.3% |
| O=C(COc1ccccc1)OC1CN2CCC1CC2 (stereo not given) | inactive: 12.7% |

| Compound | inhibition |
| --- | --- |
| CP(=O)(NC(=O)Nc1ccccc1)Oc1ccccc1 (stereo not given) | inactive: 8.49% |
| Cc1cc(C)cc(OP(C)(=O)Nc2ccc(SC(F)(F)F)cc2)c1 (stereo not given) | inactive: 12.4% |
| COP1(=S)c2c(C)nn(CCC#N)c2N=C(c2ccc(F)cc2)N1C (stereo not given) | inactive: 4.95% |
| Cc1cccc(C)c1OP(C)(=O)Nc1ccc(SC(F)(F)F)cc1 (stereo not given) | inactive: -11.4% |
| CP(=O)(Oc1ccccc1)OC(c1ccccc1)C(F)(F)F (stereo not given) | inactive: 5.68% |
| O=P(Nc1ccccn1)(c1cccc2ccccc12)c1cccc2ccccc12 | inactive: 10% |
| Cc1cc(SC(NC=O)C(Cl)(Cl)Cl)ncn1 (stereo not given) | inactive: 3.82% |
| COc1ccccc1OP(C)(=O)Nc1ccccc1 (stereo not given) | inactive: -2.41% |
| CP(=O)(Nc1ccccc1Br)Oc1ccccc1 (stereo not given) | inactive: 6.98% |
| CP(=S)(Nn1cnnc1)Oc1ccccc1 (stereo not given) | inactive: 8.87% |
| Cc1cc(SC(NC(=O)c2ccccc2)C(Cl)(Cl)Cl)nc(C(C)C)n1 (stereo not given) | inactive: -7.52% |
| CCCOc1ccc(NP(C)(=O)Oc2ccc(Cl)cc2)cc1 (stereo not given) | inactive: 6.78% |
| CP(=O)(Nc1ccc(SC(F)(F)F)cc1)Oc1ccccc1 (stereo not given) | inactive: -2.07% |
| Cc1ccc(OCC(=O)OC2CN3CCC2CC3)cc1 (stereo not given) | inactive: 4.68% |
| O=P1(Nc2ccc(Br)cn2)COc2ccccc2OC1 | inactive: -1.2% |
| COc1ccccc1OP(C)(=O)Nc1c(C)cccc1C (stereo not given) | inactive: 12.4% |
| CN1CCCCC1COC(=O)C1(O)c2ccccc2CCc2ccccc21 (stereo not given) | inactive: -3.96% |
| O=P1(Nc2ncccn2)COc2ccccc2OC1 | inactive: 2.94% |
| CN(C)C1(CNC(=O)c2ccc(S(C)(=O)=O)cc2)CCCCC1 | inactive: -1.19% |
| Cc1nn(-c2ccccc2)c2c1P(=O)(N1CCOCC1)N(C)C(c1ccccc1)=N2 (stereo not given) | inactive: 2.02% |
| CC1CCC(C(C)C)C(OP(=O)(Nc2ccccn2)c2ccccc2)C1 (stereo not given) | inactive: -7.22% |
| COc1cc(C2NCCC3(OCCO3)C2(C)C)cc(OC)c1OC.O=[N+]([O-])c1cc([N+](=O)[O-])c(O)c([N+](=O)[O-])c1 (stereo not given) | inactive: 10.4% |
| CC(C)/C=N\N=C(\N)N[N+](=O)[O-] | inactive: 10.2% |
| CN(C(=O)Cc1ccc(Cl)c(Cl)c1)[C@@H]1CCCC[C@H]1N1CCCC1 | inactive: -7.85% |
| Cc1nc2ccc3ccccc3c2s1.O=[N+]([O-])c1cc([N+](=O)[O-])c(O)c([N+](=O)[O-])c1 | inactive: 7.93% |
